Values from PubChem BioAssay AID624099 (ICCB-Longwood, 2012)
Here is an unselected part of about 21,000 deposited reagents. 497 of them (2.4%) were called active. 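Higher z means weaker E2 silencing; only reporter increases were scored, and knock-downs that hurt cell survival may mask genuine repressor factors.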

Screen: 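Knock-downs relieving repression by E2 of an HPV18 LCR luciferase reporter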 (primary screen)
Cell system: human C33A cervical carcinoma cells (HPV-negative) stably expressing BPV1 E2 and an HPV18 LCR luciferase reporter
Reagent: siRNA pool against human genes, 40 nM
Time to read-out: 72 h
Measurement: 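Per-well luciferase luminescence, z-scored on each plate against the plate mean and SD with control wells left out, then averaged across three replicate plates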
Reading the numbers: mean z-score and z-score: higher = stronger reporter signal, weaker E2 silencing
Hit rule: 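Hit if mean z-score reaches 2 and two or more of three replicate z-scores also reach 2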

Which result is listed for GEMIN5?
mean z-score: 1.11; z-score, replicate A: 1.04; z-score, replicate B: 1.08; z-score, replicate C: 1.2; call: inactive

For TEX30, what does the deposit list?
mean z-score: 0.45; z-score, replicate A: 0.57; z-score, replicate B: 0.52; z-score, replicate C: 0.25; call: inactive

For C1QTNF9, how do the results read?
mean z-score: 0.18; z-score, replicate A: 0.3; z-score, replicate B: -0.13; z-score, replicate C: 0.36; call: inactive

For CTPS2, what was measured?
mean z-score: -0.79; z-score, replicate A: -0.82; z-score, replicate B: -0.93; z-score, replicate C: -0.62; call: inactive

For CROCCP3, what does the deposit list?
mean z-score: -1.02; z-score, replicate A: -1.19; z-score, replicate B: -0.68; z-score, replicate C: -1.19; call: inactive

For LINC00877, what was measured?
mean z-score: 0.17; z-score, replicate A: 0.06; z-score, replicate B: -0.05; z-score, replicate C: 0.5; call: inactive

With TTC23, what was measured?
mean z-score: 2.24; z-score, replicate A: 2.21; z-score, replicate B: 2.12; z-score, replicate C: 2.38; call: active

For CACNG6, how do the results read?
mean z-score: -1.23; z-score, replicate A: -1.89; z-score, replicate B: -1.29; z-score, replicate C: -0.51; call: inactive

What is on record for INSL3?
mean z-score: -0.76; z-score, replicate A: -0.99; z-score, replicate B: -0.69; z-score, replicate C: -0.61; call: inactive

How did the screen score DSCR8?
mean z-score: 0.8; z-score, replicate A: 0.27; z-score, replicate B: 1.09; z-score, replicate C: 1.04; call: inactive

How did the screen score PRPF8?
mean z-score: 0.47; z-score, replicate A: 0.38; z-score, replicate B: 0.5; z-score, replicate C: 0.54; call: inactive

What is on record for COLCA1?
mean z-score: -0.3; z-score, replicate A: -0.32; z-score, replicate B: -0.25; z-score, replicate C: -0.32; call: inactive

What did the screen give for AXDND1?
mean z-score: -1.08; z-score, replicate A: -1.27; z-score, replicate B: -1.03; z-score, replicate C: -0.95; call: inactive

What is on record for TDP1?
mean z-score: -1.9; z-score, replicate A: -2.06; z-score, replicate B: -2.19; z-score, replicate C: -1.45; call: inactive

What is on record for HHCM?
mean z-score: -0.67; z-score, replicate A: -0.93; z-score, replicate B: -0.25; z-score, replicate C: -0.83; call: inactive

With ATP5MF, what does the deposit list?
mean z-score: -0.89; z-score, replicate A: -1.13; z-score, replicate B: -0.64; z-score, replicate C: -0.9; call: inactive

For H4C16, what does the deposit list?
mean z-score: -1.7; z-score, replicate A: -1.41; z-score, replicate B: -1.61; z-score, replicate C: -2.08; call: inactive

For LOC401701 (retired record), what does the deposit list?
mean z-score: -0.07; z-score, replicate A: 0.15; z-score, replicate B: -0.54; z-score, replicate C: 0.19; call: inactive

With IPPK, what does the deposit list?
mean z-score: 0.23; z-score, replicate A: 0.26; z-score, replicate B: -0.02; z-score, replicate C: 0.45; call: inactive

For PTPRM, what was measured?
mean z-score: -0.16; z-score, replicate A: 0.04; z-score, replicate B: -0.08; z-score, replicate C: -0.44; call: inactive

With ALX4, what was measured?
mean z-score: -0.4; z-score, replicate A: -0.21; z-score, replicate B: -0.46; z-score, replicate C: -0.53; call: inactive

3 of these entries in another layout:
TEX30
- mean z-score: 0.45
- z-score, replicate A: 0.57
- z-score, replicate B: 0.52
- z-score, replicate C: 0.25
- call: inactive

C1QTNF9
- mean z-score: 0.18
- z-score, replicate A: 0.3
- z-score, replicate B: -0.13
- z-score, replicate C: 0.36
- call: inactive

CTPS2
- mean z-score: -0.79
- z-score, replicate A: -0.82
- z-score, replicate B: -0.93
- z-score, replicate C: -0.62
- call: inactive
